This data set concerns the target SrrA (phosphorylated with acetylphosphate, SrrA~P) (UniProt A0A0H2XI68). In words: EMSA. To be noted: 15-146 ng SrrA, poly(dI-dC), decreased by excess unlabeled promoter DNA; recombinant protein; residues 1-241; protein details: C-terminal poly-His (pET20b); label: biotin (one labeled primer); probe letters rebuilt from the primers and the genome. On the technique in general: A gel shift assay detects complexes by their altered migration in electrophoresis.

The exact form of at least one protein or probe is not confirmed.

Here are results for 2 sequences from article PMC5242492.

Regarding “ATTTAGGCATTTAAATAGCGGAACACTTTACGGTTAGATTAGAATAATTATAAAAAAGAGAGCAAAAACACTTTACAGATTAGAATTATTATAATATAATAATTAATATAAACAAGCAAGACGTAGACAATTTTAAGGAGTGTATTAAAT (double strand) [dps promoter, 150 bp]”, the binding result is “binds”.

As for “ACAGGTCATACCTCCCACACATGCTTTTCTTTACAAAAGTATTATATCACAGGAAAGCGCATACAGTTATTAAAAACCTAAAATTTTGTGAAAAAATTCTCAAACTTTGTGATAAATACATATTTTATTTAATTATTTCCCATGTTCTGC (double strand) [srrA promoter, 150 bp]”, the binding result was “binds”.
